PSTVd loop 6 mutant pool in Nicotiana benthamiana

Source: Wu et al. 2024 (doi:10.1371/journal.ppat.1012142), supplementary data.

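A pool of all variants was put on leaves of three Nicotiana benthamiana plants. Samples came from the inoculated region at 5 days, the leaf margin at 10 and upper systemic leaves at 12.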

PSTVd intermediate strain, loop 6: wild type UGACCGCGAG, pool pattern UNNNCGNNNG; upper and lower strand joined, each 5' to 3', the first 5 letters being the upper strand, closing pairs included.

Numbers give reads per thousand; 0 = not seen among the reads, higher = more abundant.
Each value is the mean of three plants.
"Pool" is the share in the plasmid pool used as inoculum, on the same scale.
The inoculated region was read from the minus strand, the other sites from the plus strand.
Sequences that differ at fixed positions probably stem from PCR or sequencing errors, and defective variants can be carried along by functional ones.
For reference, wild type rose from 20.7 per thousand in the pool to 195, 198, 203 (inoculated region), 629, 591, 734 (leaf margin) and 942, 870, 868 (systemic leaves).
Samples held 36,220 to 57,551 reads, so the smallest values rest on one or two reads.

sequence,pool,inoculated region,leaf margin,systemic leaves
UAUUCGCCUG,0.222,0.0654,0.00920,0
UAGGCGAGUG,0.170,0.106,0.00920,0
UGAACGCACG,0.248,0.169,0.00773,0
UAACCGUUGG,0.235,0.196,0.00773,0
UUCUCGAAUG,0.549,0.108,0,0
UGACCGGUGG,0.366,0.310,1.33,0.485
UACUCGGAUG,0.209,0.149,0.0184,0.0135
UUAUCGAUGG,0.288,0.120,0,0.00673
UGUGCGGCUG,0.196,0.0898,0,0
UGGACGUUGG,0.235,0.125,0,0
UGUUCGAUCG,0.471,0.101,0,0
UCGACGAUGG,0.209,0.0949,0,0
UCAGCGACAG,0.301,0.131,0,0
UGAUCGAGAG,0.288,0.638,0.0859,0
UACGCGUGAG,0.288,0.0476,0,0
UCAUCGGACG,0.209,0.578,0.111,0
UUAGCGGGGG,0.170,0.0897,0,0
UUCCCGUCUG,0.314,0.0893,0,0
UCCGCGCGGG,0.196,0.0826,0,0
UGGGCGCGGG,0.144,0.0773,0.00773,0
UAUACGUCCG,0.235,0.100,0,0
UGCUCGUAAG,0.131,0.0824,0.00920,0
UCGCCACAGG,0.0131,0,0,0
UAAACGUGGG,0.209,0.0653,0.00773,0
UAACCGGGUG,0.235,0.120,0,0
GGACCGUGUG,0.0131,0.0239,0,0
UGUCCGUCCG,0.248,0.106,0.00773,0
UUCUCGUUUG,0.288,0.131,0,0
UGCGCGAUGG,0.275,0.0779,0,0
UCCGCGGUAG,0.209,0.0659,0.00773,0
UCUGCGGGAG,0.222,0.0476,0,0
UCCGCGGCGG,0.157,0.0958,0.0169,0
UUCCCGUAUG,0.301,0.0894,0.0828,0
UGCGCGCGAG,0.222,0.244,0.421,0
UGGCCGAGGG,0.301,0.180,0.0261,0
UGGGCGUGAG,0.222,0.0829,0.00920,0
UCAGCGUCGG,0.183,0.112,0.00773,0
UUGACGGUAG,0.222,0.0996,0,0.00673
UCCCCGCUAG,0.209,0.137,0.00773,0
UAGCCGCGCG,0.209,0.703,0.0706,0.0127
UGUACGCACG,0.196,0.0951,0,0
UAAUCGGGGG,0.105,0.114,0.00773,0
UCGGCGAAAG,0.392,0.114,0,0
UGCACGUGUG,0.235,0.0768,0,0
UACACGUCAG,0.183,0.625,0.103,0
UUUACUGUCC,0.0131,0,0,0.00673
UUUGCGAAGG,0.0784,0.118,0,0
UUGCCGGAGU,0.0131,0,0,0
UCACCGACGG,0.131,0.0942,0.0155,0
UUGUCGCACG,0.209,0.142,0.0155,0
UUACCGGUCG,0.261,0.162,0.00773,0
UCUUCGGUUG,0.288,0.154,0.00841,0
UGUUCGGGAG,0.379,0.586,0.0415,0.00684
UGUUCGCAGG,0.196,0.101,0.00773,0
UUGGCGACUG,0.562,0.100,0.00920,0
UGUGCGAGAG,0.248,0.0478,0.00773,0.00599
UUCCCAUGGG,0.0131,0,0,0
UAAGCGGAUG,0.275,0.0997,0.00920,0
UCACCGUGCG,0.157,0.0772,0.0155,0
UGACGGUUCG,0.0131,0,0,0
UACUCGCAAG,0.118,0.162,0.00773,0
UUCUCGGACG,0.327,0.606,0.0591,0
UCUGCGGCGG,0.222,0.0784,0,0
UGGACGAGCG,0.131,0.0714,0,0
UUACCGGCCG,0.157,0.132,0.00773,0
UCACCUCGCG,0.0131,0,0,0
UUACCGGAUA,0.0131,0,0,0
UGUCCGGAUG,0.366,0.0650,0.00920,0
UAAGCGUUCG,0.288,0.0592,0.00773,0
UAUGCGAUCG,0.340,0.109,0.00920,0
UUGCCGGUCG,0.301,0.0898,0.00773,0
UCUACGCCCG,0.261,0.0899,0,0

7 of these entries, quoted again:

With UACACGUCAG (pool 0.183) the assay gave inoculated region 0.625; leaf margin 0.103; systemic leaves 0.
With UAUUCGCCUG (pool 0.222) the assay gave inoculated region 0.0654; leaf margin 0.00920; systemic leaves 0.
With UACGCGUGAG (pool 0.288) the assay gave inoculated region 0.0476; leaf margin 0; systemic leaves 0.
With UCUGCGGGAG (pool 0.222) the assay gave inoculated region 0.0476; leaf margin 0; systemic leaves 0.
With UAACCGGGUG (pool 0.235) the assay gave inoculated region 0.120; leaf margin 0; systemic leaves 0.
With UAUACGUCCG (pool 0.235) the assay gave inoculated region 0.100; leaf margin 0; systemic leaves 0.
With UUCUCGAAUG (pool 0.549) the assay gave inoculated region 0.108; leaf margin 0; systemic leaves 0.